A mixed list of measured activities; the numbers were collected in NIAID ChemDB.

All rows: growth or infection tests; species: HIV-1; method: cytopathic effect; measure: inhibition

Inhibition is in % at the dose shown (toxicity tests: loss of growth or viability).

smiles	tested at	cells	changes	strain	setting	value
C=C(C)[C@@H]1CC[C@]2(C(=O)O)CC[C@]3(C)C(CCC4[C@@]5(C)CC[C@H](OC(=O)CN(OC)[C@@H]6O[C@H](C)[C@@H](O)[C@H](O)[C@H]6O)C(C)(C)C5CC[C@]43C)C12	10 µM	-	-	IIIB	-	52%
COc1ccc(/C=N/N=C(\N)NO)c(OC)c1C.Cc1ccc(S(=O)(=O)O)cc1	10 µg/mL	CEM	-	IIIB	-	46.6%
Cc1cn([C@H]2C[C@H](NCC#N)[C@@H](CO)O2)c(=O)[nH]c1=O	100 µM	CEM	-	LAV	-	0%
C=Cc1c(C)c2cc3[nH]c(cc4nc(cc5nc(cc1[nH]2)C(C)=C5CCCO)C(CCCO)=C4C)c(C)c3C=C	10 µg/mL	MT-4	-	LAV	-	97%
Cc1cn([C@H]2C[C@H](NC=O)[C@@H](CO)O2)c(=O)[nH]c1=O	100 µM	CEM	-	LAV	-	0%
C=C(C)[C@@H]1CC[C@]2(C(=O)O)CC[C@]3(C)C(CCC4[C@@]5(C)CC[C@H](OC(=O)CN(OC)C6O[C@H](C)[C@H](O)[C@H](O)[C@H]6O)C(C)(C)C5CC[C@]43C)C12	10 µM	-	-	IIIB	-	28%
C=Cc1c(C)c2cc3[nH+]c(c4c5[n-]c(cc6[nH+]c(cc1[n-]2)C(C)=C6CC)c(C)c5C(=O)C4C(=O)OC)[C@@H](CCC(=O)O/C=C(\C)CCCC(C)CCCC(C)CCCC(C)C)[C@@H]3C.[Mg+2]	10 µg/mL	MT-4	-	LAV	-	99%
O[C@H]1CCN(Cc2ccccc2)C[C@@H]1O	10 µg/mL	CEM + CEM-SS	-	BRU	-	84%
COc1ccc(/C=N/N=C(\N)NO)cc1O.Cc1ccc(S(=O)(=O)O)cc1	10 µg/mL	CEM	-	IIIB	-	10%
C=C(C)[C@@H]1CC[C@]2(C(=O)O)CC[C@]3(C)C(CCC4[C@@]5(C)CC[C@H](OC(=O)CN(OC)C6O[C@H](CO)[C@@H](O)C[C@H]6O)C(C)(C)C5CC[C@]43C)C12	10 µM	-	-	IIIB	-	31%
Nc1nc2c(ncn2[C@@H]2C[C@H](CO)[C@H](O)[C@@H]2O)c(=O)[nH]1	125 µg/mL	CEM-V/MT-2 + CEM	-	-	-	0%
COc1ccc(/C=N/N=C(/N)NO)cc1OC	32 µg/mL	CEM	-	IIIB	-	65%
Nc1nc2c(nnn2[C@@H]2C[C@H](CO)[C@H](O)[C@@H]2O)c(=O)[nH]1	125 µg/mL	CEM-V/MT-2 + CEM	-	-	-	0%
Cc1ccc(S(=O)(=O)O)cc1.N/C(=N\N=C\c1ccc(O)c(O)c1)NO	10 µg/mL	CEM	-	IIIB	-	0%
O=C(O)CCC(CCC(=O)O)(CCC(=O)O)NC(=O)CCC(CCC(=O)NC(CCC(=O)O)(CCC(=O)O)CCC(=O)O)(CCC(=O)NC(CCC(=O)O)(CCC(=O)O)CCC(=O)O)NC(=O)CCCOC(=O)C1(C(=O)OCCCC(=O)NC(CCC(=O)NC(CCC(=O)O)(CCC(=O)O)CCC(=O)O)(CCC(=O)NC(CCC(=O)O)(CCC(=O)O)CCC(=O)O)CCC(=O)NC(CCC(=O)O)(CCC(=O)O)CCC(=O)O)C2c3cc4c5c6c3-c3c(cc7c8c3C6C3c6c-5c(cc5ccc9cc(c-8c3c9c65)C7)C4)C21	2.75 µM	PBMC	AZT-resistant (RT 215/41)	-	-	90%
O=C(O)C(O)c1ccccc1	64 µg/mL	MT-2	-	IIIB	-	99.9%
C=C(C)[C@@H]1CC[C@]2(C(=O)O)CC[C@]3(C)C(CCC4[C@@]5(C)CC[C@H](OC(=O)CN(OC)C6O[C@H](CO)[C@@H](O)[C@H](O)[C@@H]6O)C(C)(C)C5CC[C@]43C)C12	10 µM	-	-	IIIB	-	12%
C=C1C[C@H](n2cc(C)c(=O)[nH]c2=O)O[C@@H]1CO	500 µg/mL	MT-4	-	-	-	0%
Nc1nc(Cl)c2ncn([C@@H]3C[C@H](CO)[C@@H](O)[C@@H]3O)c2n1	125 µg/mL	CEM-V/MT-2 + CEM	-	-	-	0%
CC1C[C@H](O)[C@@H](O)CN1Cc1ccccc1	1 µg/mL	CEM + CEM-SS	-	BRU	-	63%
COC(=O)CCC1=C(C)c2cc3[nH]c(cc4[nH]c(cc5nc(cc1n2)C(C)=C5CCC(=O)OC)c(C)c4CCC(=O)OC)c(CCC(=O)OC)c3C	10 µg/mL	MT-4	-	LAV	-	96.5%
C=C(C)[C@@H]1CC[C@]2(C(=O)O)CC[C@]3(C)C(CCC4[C@@]5(C)CC[C@H](OC(=O)CN(OC)C6OC[C@H](O)[C@H](O)[C@@H]6O)C(C)(C)C5CC[C@]43C)C12	10 µM	-	-	IIIB	-	20%
CC1(C)[C@@H](O[C@H]2O[C@H](C(=O)O)[C@@H](O)[C@H](O)[C@H]2O[C@@H]2O[C@H](C(=O)O)[C@@H](O)[C@H](O)[C@H]2O)CC[C@]2(C)[C@H]3C(=O)C=C4[C@@H]5C[C@@](C)(C(=O)O)CC[C@]5(C)CC[C@@]4(C)[C@]3(C)CC[C@@H]12	1200 µM	MOLT-4	-	IIIB	6 d	5.7%
Nc1ccn([C@H]2CC[C@@H](CO)O2)c(=O)n1	0.1 µM	ATH8	-	IIIB	-	75%
CC1=C(CCC(=O)O)c2cc3nc(cc4[nH]c(cc5[nH]c(cc1n2)c(C)c5CCC(=O)O)c(CCC(=O)O)c4C)C(CCC(=O)O)=C3C	10 µg/mL	MT-4	-	LAV	-	96.5%
Cc1cn([C@H]2C[C@H](NC#N)[C@@H](CO)O2)c(=O)[nH]c1=O	100 µM	CEM	-	LAV	-	0%
Cl.O=C(O)CCC1=C(CC(=O)O)c2cc3nc(cc4[nH]c(cc5[nH]c(cc1n2)c(CC(=O)O)c5CCC(=O)O)c(CC(=O)O)c4CCC(=O)O)C(CC(=O)O)=C3CC(=O)O	10 µg/mL	MT-4	-	LAV	-	97%
CN1CC[C@H](O)[C@@H](O)C1	100 µg/mL	CEM + CEM-SS	-	BRU	-	6.1%
C=C(C)[C@@H]1CC[C@]2(C(=O)O)CC[C@]3(C)C(CCC4[C@@]5(C)CC[C@H](OC(=O)CN(OC)[C@@H]6O[C@H](CO)[C@@H](O)[C@@H](O)[C@H]6O)C(C)(C)C5CC[C@]43C)C12	10 µM	-	-	IIIB	-	29%
CC1=C(CCC(=O)O)c2cc3nc(cc4[nH]c(cc5[nH]c(cc1n2)c(C)c5C(C)O)c(C)c4C(C)O)C(C)=C3CCC(=O)O	10 µg/mL	MT-4	-	LAV	-	99%
C=C(C)[C@@H]1CC[C@]2(C(=O)O)CC[C@]3(C)C(CCC4[C@@]5(C)CC[C@H](OC(=O)CN(OC)[C@@H]6OC[C@@H](O)[C@H](O)[C@@H]6O)C(C)(C)C5CC[C@]43C)C12	10 µM	-	-	IIIB	-	6%
OCCN1CC[C@H](O)[C@@H](O)C1	10 µg/mL	CEM + CEM-SS	-	BRU	-	48%
COc1cc(/C=N/N=C(\N)NO)ccc1O.Cc1ccc(S(=O)(=O)O)cc1	10 µg/mL	CEM	-	IIIB	-	0%

Repeating the first 3 entries:

{"smiles": "C=C(C)[C@@H]1CC[C@]2(C(=O)O)CC[C@]3(C)C(CCC4[C@@]5(C)CC[C@H](OC(=O)CN(OC)[C@@H]6O[C@H](C)[C@@H](O)[C@H](O)[C@H]6O)C(C)(C)C5CC[C@]43C)C12", "tested at": "10 µM", "strain": "IIIB", "value": "52%"}
{"smiles": "COc1ccc(/C=N/N=C(\\N)NO)c(OC)c1C.Cc1ccc(S(=O)(=O)O)cc1", "tested at": "10 µg/mL", "cells": "CEM", "strain": "IIIB", "value": "46.6%"}
{"smiles": "Cc1cn([C@H]2C[C@H](NCC#N)[C@@H](CO)O2)c(=O)[nH]c1=O", "tested at": "100 µM", "cells": "CEM", "strain": "LAV", "value": "0%"}

Rows are shuffled and stem from different studies. An empty or dashed field is not shown.